Results of unrelated studies side by side (data: NIAID ChemDB).

Shared fields: growth or infection tests

ECn: concentration that inhibits the pathogen or its effect by n%.

smiles | read by | cell line | strain or isolate | endpoint | tested at | species | changes | value
Nc1nc(=O)n([C@H]2C[C@H](O)[C@@H](CO)O2)cc1/C=C\Cl | cytopathic effect | PRK | Kentucky (type 1) | EC50 | - | Equine herpesvirus 1 | - | >200 µg/mL
COc1ccc(Cc2cn(Cc3ccc(O)cc3)c(/N=C3/NC(=O)NC3=O)n2)cc1 | - | - | ATCC 18824 | MIC | - | Saccharomyces cerevisiae | - | >100 µg/mL
N#Cc1csc(NC(=O)NCCc2ccccc2)n1 | RT activity | MT-4 | - | inhibition | 100 µg/mL | HIV-2 | - | 96%
c1ccc(-c2nc3ccn(Cc4cccc5ccccc45)cc-3n2)cc1 | cytopathic effect | MDBK | PE515 | EC50 | - | Bovine viral diarrhea virus | - | 0.455 µg/mL
CSc1nsc(-c2ccc(OCCc3ccccc3)cc2)c1C#N | cytopathic effect | HELA-OHIO | Serotype 86 (group A) | EC50 | - | Rhinovirus | - | 2 µM
Brc1ccc(Cn2ccc3nc(-c4ccccc4Br)nc-3c2)cc1 | cytopathic effect | MDBK | PE515 | EC50 | - | Bovine viral diarrhea virus | - | 0.026 µg/mL
C=CCc1nc(C)n2c(=O)[nH]c(NC(C)=O)nc12 | cytopathic effect | VERO | - | EC50 | - | Semliki Forest virus | - | >200 µg/mL
CC(=O)N[C@H]1[C@H]([C@H](O)[C@H](O)CO)OC(C(=O)O)=C[C@@H]1N=C(N)N | visual reading | MDCK | Influenza A/Sydney/05/97 (H3N2) | EC50 | - | Influenza A virus | - | 0.16 µM
Nc1nc2c(ncn2CC(CO)OCP(=O)(O)O)c(=O)[nH]1 | cytopathic effect | HEL | AD169 | EC50 | - | Cytomegalovirus | - | 0.7 µg/mL
CN(C)c1ncnc2c1ncn2Cc1ccc(N)cc1 | plaque count | M-HELA | - | EC50 | - | Coronavirus | - | >50 µM
Cc1ccn2c(C(=O)NCc3ccc(N4CCN(c5ccc(OC(F)(F)F)cc5)[C@@H](C)C4)c(F)c3)c(C(F)(F)F)nc2c1 | fluorescence | - | - | inhibition | 0.045 µM | Mycobacterium avium | - | 85%
O=C(NCCc1ccccc1)Nc1nc2ccccc2s1 | RT activity | MT-4 | - | inhibition | 100 µg/mL | HIV-2 | - | 96%
N=C(N)c1ncn([C@@H]2O[C@H](CO)[C@@H](O)[C@H]2O)n1 | - | - | - | EC50 | - | Pichinde virus | - | >100 µM
C[C@@H](c1ncncc1F)[C@](O)(Cn1cncn1)c1ccc(F)cc1F | broth dilution | - | CBS 11247 | MIC | - | Cryptococcus gattii | - | 0.25 µg/mL
Nc1ncnc2c1ncn2C[C@@H](CO)OCP(=O)(O)O | cytopathic effect | HEL | AD169 | EC50 | - | Cytomegalovirus | - | 1 µg/mL
Brc1ccc(Cn2ccc3nc(CCc4ccccc4)nc-3c2)cc1 | cytopathic effect | MDBK | PE515 | EC50 | - | Bovine viral diarrhea virus | - | 0.026 µg/mL
CCOC(=O)c1ccc(OCCCCOc2ccc(-c3snc(SC)c3C#N)cc2)cc1 | cytopathic effect | HELA-OHIO | Serotype 59 (group B) | EC50 | - | Rhinovirus | - | >2 µM
CC(=O)Nc1nc2c(CC(O)CO)nc(C)n2c(=O)[nH]1 | cytopathic effect | VERO | - | EC50 | - | Semliki Forest virus | - | >200 µg/mL
Nc1nc2c(ncn2COCCO)c(=O)[nH]1 | virus yield | GPE | Lymphotropic | EC50 | - | Guinea pig herpesvirus | - | <354 µg/mL
CCc1nc2cc(C)ccn2c1C(=O)NCc1ccc(Oc2cccc(C(F)(F)F)c2)cc1 | fluorescence | - | - | inhibition | 0.59 µM | Mycobacterium avium | - | 85%
C=CCc1ncn2c(=O)[nH]c(NC(C)=O)nc12 | cytopathic effect | VERO | - | EC50 | - | Semliki Forest virus | - | >200 µg/mL
Nc1nc2c(ncn2COC(CO)CO)c(=O)[nH]1 | plaque count | GPE | - | EC50 | - | Guinea pig cytomegalovirus | - | 81.68 µM
CCc1nc(N)nc(N)c1-c1ccc(Cl)cc1 | - | - | DW28 | MIC | - | Mycobacterium avium complex | - | 32 µg/mL
C/C=C/C/C=C/CCC(=O)[C@H]1O[C@H]1C(N)=O | - | - | UB1005 (TLM-S) | MIC | - | Escherichia coli | - | 20 µg/mL
[2H]c1c(C([2H])([2H])[2H])c([2H])n2c(C(=O)NCc3cc(F)ccc3F)c(C)nc2c1[2H] | fluorescence | - | - | inhibition | 0.8 µM | Mycobacterium avium | - | 85%
CC1CCC(C(=O)N(c2cc(C#CC(C)(C)C)sc2C(=O)O)C2CCC(O)CC2)CC1 | luciferase | Huh7 | H77 (GT1a) | fold resistance | - | Hepatitis C virus | A486V | 48.5
N#Cc1ccc(CSc2ncnc3c2ncn3[C@@H]2O[C@H](CO)[C@@H](O)[C@H]2O)cc1 | - | - | RH (WILD TYPE) | inhibition | 25 µM | Toxoplasma gondii | - | 92.44%
CN(C)c1ncnc2c1ncn2Cc1ccc(NC(=O)C(N)Cc2ccccc2)cc1 | plaque count | M-HELA | - | EC50 | - | Coronavirus | - | >50 µM
CN1C(=O)[C@@H](Cc2ccccc2)NC1=S | cytopathic effect / XTT | MT-4 | - | inhibition | 10 µg/mL | HIV-2 | - | 63%
CN(C)c1ncnc2c1ncn2Cc1cccc(NC(=O)C(N)Cc2ccccc2)c1 | plaque count | M-HELA | - | EC50 | - | Coronavirus | - | 50 µM
CC[C@@H](C(C)C)[C@H](O)[C@@H](O)[C@@H](C)[C@H]1CC[C@H]2[C@@H]3CC(=O)[C@H]4C[C@H](O)[C@H](O)C[C@]4(C)[C@H]3CC[C@]12C | plaque count | VERO | AN3739 | EC50 | - | Pichinde virus | - | 3.5 µM
O=C(NCCc1ccccc1)Nc1nc(C(F)(F)F)cs1 | cytopathic effect / XTT | MT-4 | - | inhibition | 0.1 µg/mL | HIV-2 | - | 21%
CSc1nsc(-c2ccc(OCCCOc3ccc([N+](=O)[O-])cc3)cc2)c1C#N | cytopathic effect | HELA-OHIO | Serotype 59 (group B) | EC50 | - | Rhinovirus | - | >1 µM
C/C=C/c1cn([C@H]2C[C@H](O)[C@@H](CO)O2)c(=O)[nH]c1=O | plaque count | VERO | C42 | inhibition | 10 µM | Herpes simplex virus 1 | - | 91%
CCCCN1C(=O)[C@@H](Cc2ccccc2)NC1=S | RT activity | MT-4 | - | inhibition | 1 µg/mL | HIV-2 | - | 1%
CC[C@@H](C(C)C)[C@@H](O)[C@H](O)[C@@H](C)[C@H]1CC[C@H]2[C@@H]3CC(=O)[C@H]4C[C@H](O)[C@H](O)C[C@]4(C)[C@H]3CC[C@]12C | plaque count | VERO | AN3739 | EC50 | - | Pichinde virus | - | 3.9 µM
O=C(NCCc1ccccc1)Nc1nncs1 | RT activity | MT-4 | - | inhibition | 100 µg/mL | HIV-2 | - | 96%
CN(C)c1ncnc2c1ncn2Cc1ccccc1NC(=O)CN | plaque count | M-HELA | - | EC50 | - | Coronavirus | - | >50 µM
O=C1[C@@H](Cc2ccc(O)cc2)NC(=S)N1c1ccccc1 | cytopathic effect / XTT | MT-4 | - | inhibition | 100 µg/mL | HIV-2 | - | 100%
NCC(=O)Nc1cccc(Cn2cnc3c(N)ncnc32)c1 | plaque count | M-HELA | - | EC50 | - | Coronavirus | - | >50 µM
Nc1ccn(C[C@@H](CO)OCP(=O)(O)O)c(=O)n1 | cytopathic effect | MOLT-3 | TYPE 6B | EC50 | - | Human herpesvirus 6 | - | 1.9 µg/mL
Nc1nc2c(ncn2COC(CO)CO)c(=O)[nH]1 | plaque count | - | VR3480 (ganciclovir-resistant) | EC90 | - | Human cytomegalovirus | - | 75 µM
CCc1nc2cc(F)ccn2c1C(=O)NCc1ccc(N2CCN(c3ccc(OCC(F)(F)F)cc3)[C@@H](C)C2)c(F)c1.Cl | fluorescence | - | - | inhibition | 0.0046 µM | Mycobacterium avium | - | 85%
C/C=C/c1cn([C@@H]2O[C@H](CO)[C@@H](O)[C@@H]2O)c(=O)[nH]c1=O | plaque count | VERO | C42PFA-R | inhibition | 250 µM | Herpes simplex virus 1 | - | 65%
Nc1cnn([C@@H]2O[C@H](CO)[C@@H](O)[C@H]2O)c(=O)n1 | - | HEP-2 | TYPE 5 | inhibition | 62 µg/mL | Adenovirus | - | 100%
Cc1nn2ccc(F)cc2c1C(=O)NCc1ccc(N2CCN(c3ccc(OC(F)(F)F)cc3)[C@@H](C)C2)c(F)c1.Cl | fluorescence | - | - | inhibition | 0.11 µM | Mycobacterium avium | - | 85%
Nc1ncnc2c1ncn2C[C@H]1COP(=O)(O)CO1 | plaque count | HEL | AD169 | EC50 | - | Cytomegalovirus | - | 0.08 µg/mL
N#Cc1ccc(Cn2ccc3nc(-c4ccccc4)nc-3c2)cc1 | cytopathic effect | MDBK | PE515 | EC50 | - | Bovine viral diarrhea virus | - | 0.022 µg/mL
Nc1nc(=O)n([C@H]2C[C@H](O)[C@@H](CO)O2)cc1/C=C/Cl | cytopathic effect | PRK | Kentucky (type 1) | EC50 | - | Equine herpesvirus 1 | - | >400 µg/mL
Nc1ncnc2c1ncn2Cc1cccc(NC(=O)C(Cc2ccccc2)NC(=O)OCc2ccccc2)c1 | plaque count | M-HELA | - | EC50 | - | Coronavirus | - | >50 µM
CSc1nsc(-c2ccc(OCCCc3ccccc3)cc2)c1C#N | cytopathic effect | HELA-OHIO | Serotype 70 (group A) | EC50 | - | Rhinovirus | - | >20 µM

Repeating the final 3 entries:

smiles | read by | cell line | strain or isolate | endpoint | tested at | species | changes | value
Nc1nc(=O)n([C@H]2C[C@H](O)[C@@H](CO)O2)cc1/C=C/Cl | cytopathic effect | PRK | Kentucky (type 1) | EC50 | - | Equine herpesvirus 1 | - | >400 µg/mL
Nc1ncnc2c1ncn2Cc1cccc(NC(=O)C(Cc2ccccc2)NC(=O)OCc2ccccc2)c1 | plaque count | M-HELA | - | EC50 | - | Coronavirus | - | >50 µM
CSc1nsc(-c2ccc(OCCCc3ccccc3)cc2)c1C#N | cytopathic effect | HELA-OHIO | Serotype 70 (group A) | EC50 | - | Rhinovirus | - | >20 µM

Fold resistance has wild type as its base. Blank or dashed fields: not listed here. Percent inhibition refers to the dose given; in toxicity tests it is the harm to the cells. Conditions beyond the fields shown may differ between rows.